3 molecules from article PMC8000395, “Effective Small Molecule Antibacterials from a Novel Anti-Protein Secretion Screen” (Microorganisms, 2021) can be followed below.

For the assay, the system named is Entheropathogenic E. coli O127:H6 strain E2348/69. In words: Antimicrobial activity test (growth, OD600). Format: cell-based. As to conditions: Escherichia coli, read-out: Bacterial Viability (IC50).
As for `O=C(/C=C/c1csnn1)c1ccccc1Cl` [HSI#01], the IC50 is greater than 100 µM.
Next, `O=C(/C=C/c1csnn1)c1cccc2ccccc12` [HSI#10]: greater than 100 µM; `O=C(/C=C/c1csnn1)c1cc(Cl)ccc1Cl` [HSI#05]: greater than 100 µM.

What is called IC50 is the point on the concentration scale where inhibition reaches its midpoint.
